Experimental data from ChEMBL document CHEMBL4043104, “Conjugates of salicylaldoximes and peripheral site ligands: Novel efficient nonquaternary reactivators for nerve agent-inhibited acetylcholinesterase” (2017).

By UniProt entry, the sequences of proteins in these tests, tags left out. Residues count along the entry.
UniProt P22303, 32-614 limits assumed: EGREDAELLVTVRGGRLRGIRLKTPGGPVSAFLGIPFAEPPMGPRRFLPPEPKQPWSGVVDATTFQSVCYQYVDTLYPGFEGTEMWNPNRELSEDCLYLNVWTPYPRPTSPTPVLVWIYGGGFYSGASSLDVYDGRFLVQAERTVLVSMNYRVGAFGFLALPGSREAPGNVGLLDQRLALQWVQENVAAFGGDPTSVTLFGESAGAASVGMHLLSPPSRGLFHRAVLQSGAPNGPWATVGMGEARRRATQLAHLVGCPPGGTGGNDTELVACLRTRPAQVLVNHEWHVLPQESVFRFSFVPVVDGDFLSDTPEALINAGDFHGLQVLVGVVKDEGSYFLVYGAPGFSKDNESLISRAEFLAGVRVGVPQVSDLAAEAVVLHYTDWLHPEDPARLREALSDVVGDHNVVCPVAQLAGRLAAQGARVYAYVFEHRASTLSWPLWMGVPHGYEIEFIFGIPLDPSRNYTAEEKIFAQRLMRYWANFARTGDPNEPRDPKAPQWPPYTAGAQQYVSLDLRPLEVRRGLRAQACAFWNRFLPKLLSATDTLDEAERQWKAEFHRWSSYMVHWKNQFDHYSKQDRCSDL

Biological target: Acetylcholinesterase (Homo sapiens) (UniProt P22303)
Test: Reactivation of sarin-induced inhibition of human AChE assessed as reactivation rate constant using acetylthiocholine as substrate preincubated for 30 mins followed by substrate addition measured at 5 to 180 mins by Ellman's method

| SMILES | Kr |
| --- | --- |
| COc1cc2c(cc1OC)CN(CC1CCN(Cc3cc(F)cc(/C=N/O)c3O)CC1)CC2 | 41 ×10⁻³ /min |
| COc1cc2c(cc1OC)CN(CC1CCN(Cc3cc(Br)cc(/C=N/O)c3O)CC1)CC2 | 107 ×10⁻³ /min |
| COc1cc2c(cc1OC)CN(CC1CCN(Cc3cc(Cl)cc(/C=N/O)c3O)CC1)CC2 | 127 ×10⁻³ /min |
| COc1cc(/C=N/O)c(O)c(CN2CCC(CN3CCc4cc(OC)c(OC)cc4C3)CC2)c1 | 91 ×10⁻³ /min |
